Results of unrelated studies side by side (data: NIAID ChemDB).

All rows: tests in culture; agent: Hepatitis C virus; read-out: EC50

Neighbouring rows are from separate reports. a–b is a range or a potency band. ECn: concentration that inhibits the pathogen or its effect by n%. An empty or dashed field is not shown.

compound	strain	method	value
C[C@@H](NC(=O)Cc1ccccc1)C(=O)Nc1ccc(C2SC(=Nc3cccc(F)c3)N(Cc3ccco3)C2=O)cc1			0.008 µM
Cc1cc(C(=O)Nc2ccc(-c3cc(N(C(=O)C4CCC(C)CC4)C(C)C)c(C(=O)O)s3)cc2)ccn1	1b	replicon	<0.5 µM
C=C[C@@H]1C[C@]1(NC(=O)[C@@H]1C[C@@H](Oc2cc(-c3ccccc3)nc3cc(OC)ccc23)CN1C(=O)[C@@H](CC(=O)N1CCCCC1)C(C)(C)C)C(=O)NS(=O)(=O)C1CC1		replicon	<100 µM
CCCC(NC(=O)C1C2CCCC2CN1C(=O)C(C)N1CCN(C(=O)OC(C)(C)C)CC1)C(=O)C(=O)NC1CC1	1b	replicon	<100 µM
NS(=O)(=O)c1ccc(CNc2nc(NCC(F)(F)F)c3nc(-c4ccc(F)nc4)ccc3n2)cc1		replicon	<0.1 µM
CCc1nc([N+](=O)[O-])c(Sc2ccccc2)n1Cc1ccccc1		replicon	3 µg/mL
CCc1ccc(S(=O)(=O)N2CCN(c3cc(OC)nc(OC)n3)CC2C(=O)NCc2ccc(OC)cc2)cc1	Mutant NS5B Y452H	replicon	19 µM
CC1(C)CC(=O)C2=C(C1)Nc1c(O)cccc1NC2c1cccc(Cl)c1	1b	luciferase / reporter gene / replicon	59.13 µM
CC(C)(C)OC(=O)N1CCN([C@@H](c2ccccc2C(F)(F)F)[C@@H](c2ccccc2C(F)(F)F)n2cc(Cn3cnc(=N)c4[nH]cnc43)nn2)CC1		absorbance	0.03 µM
COC(=O)c1ccc2c(C3CCCCC3)c3n(c2c1)C[C@@]1(C(=O)N2C4CCC2CN(C)C4)C[C@H]1c1cc(OC)ccc1-3	1b	replicon	0.001–0.5 µM
CCN(CC)[C@@H](C(=O)N1CCC[C@@H]1c1ncc(-c2ccc(-c3ncc(-c4cnc([C@H]5CCCN5C(=O)[C@H](C)NC(=O)OC)[nH]4)cn3)cc2)[nH]1)c1ccccc1	1b		0.00001–0.000999 µM
CN(CC(F)(F)F)c1nc(NCc2ccc(S(N)(=O)=O)cc2)nc2ccc(-c3ccc(F)nc3)nc12	1b	luciferase	0.01 µM
CCOC(=O)C12CC1/C=C\CCCCC[C@H](N1CCCCC1)C(=O)N1C[C@H](Oc3cc(-c4ccccc4)nc4cc(OC)ccc34)C[C@H]1C(=O)N2	1b	replicon	>100 µM
C=CC1CC1(NC(=O)[C@@H]1C[C@@H](Oc2cc(-c3ccccc3)nc3cc(OC)ccc23)CN1C(=O)[C@@H](CC(=O)N1CCC(CNC(=O)OC(C)(C)C)CC1)C(C)(C)C)C(=O)O		replicon	1–10 µM
CCCCCCCCCCCCCCCCCCOCCOP(=O)(O)CO[C@H](COC)Cn1cnc2c(N)ncnc21	WILD TYPE		4.41 µM
C=Cc1cc([C@H](NC(=O)[C@@H](NC(=O)OC(C)(C)C)C(C)(C)C)C(=O)N[C@@H](CCC)C(=O)NS(=O)(=O)c2ccccc2C=C)ccc1Oc1cc(-c2ccccc2)nc2cc(OC)ccc12	1b replicon	luciferase / replicon	>10 µM
COc1c(-c2cccc3ccccc23)cnn([C@@H]2C[C@H]3C(=O)N[C@]4(C(=O)NS(=O)(=O)C5CC5)CC4/C=C\CCCCCC[C@H](NC(=O)OC(C)(C)C)C(=O)N3C2)c1=O	1b	replicon	0.0001 µM
CC1(C)CC(=O)C2=C(C1)Nc1c(O)cccc1NC2c1cccnc1	1b	luciferase / reporter gene / replicon	>100 µM
O=C(O)/C=C/c1ccc(NC(=O)C2(NC(=O)c3ccc4c(c3)nc(-c3ccoc3)n4C3CCCCC3)CCCCC2)cc1			1 µM
CC1CCC(C(=O)N(c2cc(-c3ccc(NC(=O)c4ccc(F)cc4)cc3)sc2C(=O)O)C(C)C)CC1	1b	replicon	<0.5 µM
C=CC1CC1(NC(=O)[C@@H]1C[C@@H](Oc2cc(-c3ccccc3)nc3cc(OC)ccc23)CN1C(=O)[C@H](C1CCCCC1)N1CCCCC1)C(=O)O	1b	replicon	<100 µM
COC(=O)N[C@@H](C(=O)N1CCC[C@@H]1C1=NCC(c2cnc(-c3ccc(-c4cnc([C@H]5CCCN5C(=O)[C@H](NC(=O)OC)c5ccccc5)[nH]4)c(F)c3)nc2)=N1)c1ccccc1	1b		0.00001–0.000999 µM
CCOC(=O)[C@@]12C[C@H]1/C=C\CCCCC[C@H](CC(=O)N1CCCCC1)C(=O)N1C[C@H](Oc3cc(-c4ccccc4)nc4cc(OC)ccc34)C[C@H]1C(=O)N2		replicon	>10 µM
COC(=O)N[C@@H](C(=O)N1CCC[C@H]1c1ncc(-c2ccc(-c3ccc(-c4cnc([C@@H]5CCCN5C(=O)[C@H](NC(=O)OC)c5ccccc5)[nH]4)cn3)nc2)[nH]1)c1ccccc1	1b		0.00001–0.000999 µM
C=CC1CC1(NC(=O)[C@@H]1C[C@@H](Oc2cc(-c3ccccc3)nc3cc(OC)ccc23)CN1C(=O)[C@@H](CC(=O)N1CCCCC1)C(C)(C)C)C(=O)O		replicon	>10 µM
CCCC(NC(=O)C1C2CCCC2CN1C(=O)[C@@H](C)N1CCCC1)C(=O)C(=O)NC1CC1	1b	replicon	>100 µM
CC(=O)N1c2cccc(O)c2NC2=C(C(=O)CC(C)(C)C2)C1c1ccc(S(C)(=O)=O)cc1	1b	luciferase / reporter gene / replicon	>100 µM
C=CC1CC1(NC(=O)[C@@H]1C[C@@H](Oc2cc(-c3ccccc3)nc3cc(OC)ccc23)CN1C(=O)[C@H](C)N1CCCCC1)C(=O)O	1b	replicon	<100 µM
Cc1cccnc1C(=O)Nc1ccc(-c2cc(N(C(=O)C3CCC(C)CC3)C(C)C)c(C(=O)O)s2)cc1	1b	replicon	<0.5 µM
NS(=O)(=O)c1ccc(CNc2nc(C3CC3)c3nc(-c4ccc(F)c(S(N)(=O)=O)c4)ccc3n2)cc1		replicon	<0.1 µM
C=CC1CC1(NC(=O)[C@@H]1C[C@@H](Oc2cc(-c3ccccc3)nc3cc(OC)ccc23)CN1C(=O)[C@H](c1ccccc1)N1CCCCC1)C(=O)OCC	1b	replicon	<100 µM
COC(=O)N[C@@H](C(=O)N[C@@H](C)c1ncc(-c2ccc(-c3cnc(-c4cnc([C@H]5CCCN5C(=O)[C@H](NC(=O)OC)c5ccccc5)[nH]4)cn3)cc2)[nH]1)c1ccccc1	1b		0.00001–0.000999 µM
CC1CCC(C(=O)N(c2cc(-c3ccc(NC(=O)c4csc(N)n4)cc3)sc2C(=O)O)C(C)C)CC1	1a	replicon	<0.5 µM
COC(=O)N[C@H](C(=O)N1CCC[C@H]1c1ncc(-c2ccc(-c3ccc(-c4cnc([C@@H]5CCCN5C(=O)[C@@H](NC(=O)OC)C(C)C)[nH]4)cc3)cc2)[nH]1)C(C)C	Con1	replicon	0.000006 µM
Cc1ccccc1NC(=O)CCC(=O)N1c2cccc(O)c2NC2=C(C(=O)CC(C)(C)C2)C1c1ccc(OCc2ccccc2)cc1F	1b	luciferase / reporter gene / replicon	3.43 µM
CCNC(=O)c1ccc(N2CCN(S(=O)(=O)c3ccc(OC(F)(F)F)cc3)C(C(=O)NCc3ccc(OC(F)(F)F)cc3)C2)nn1	1b	replicon	0.007 µM
NC(=O)COc1ccc2c(c1)S(=O)(=O)N=C(c1c(O)c3cc(F)ccc3n(CCC3CC3)c1=O)N2	1a 42134	replicon	0.15 µM
CC1(C)CC(=O)C2=C(C1)Nc1c(O)cccc1NC2c1cc(F)c(OCc2ccccc2)c(F)c1	1b	luciferase / reporter gene / replicon	16.62 µM
C=C(C)COc1ccc(C2Nc3cccc(O)c3NC3=C2S(=O)(=O)CC(C)(C)C3)c(F)c1F	1b		14.9 µM
C=CC1CC1(NC(=O)[C@@H]1C[C@@H](Oc2cc(-c3ccccc3)nc3cc(OC)ccc23)CN1C(=O)[C@H](C)N1CCCCC1)C(=O)NS(=O)(=O)C1CC1	1b	replicon	<100 µM
COc1ccc2c(c1)C1CC1(C(=O)N1[C@@H]3C[C@H]1CN(Cc1ccccc1)C3)Cn1c-2c(C2CCCCC2)c2ccc(C(=O)NS(=O)(=O)N(C)C)cc21	1b	replicon	0.001–0.5 µM
C=C(C)COc1ccc([C@H]2C3=C(CC(C)(C)CS3(=O)=O)Nc3c(O)cccc3N2C(=O)Cc2ccccc2C)c(F)c1	1b		14.9 µM
COC(=O)N[C@H](C(=O)N1CCC[C@@H]1c1ncc(-c2ccc(-c3ccc(-c4cnc([C@@]5(C)CCCN5C(=O)[C@@H](N=C(NC#N)N(C)C)C(C)C)[nH]4)cc3)cc2)[nH]1)C(C)C	1b		0.00001–0.000999 µM
NS(=O)(=O)c1ccc(CNc2nc(Oc3cccc(F)c3)c3nc(-c4ccc(F)cc4)ccc3n2)cc1		replicon	<0.1 µM
Fc1ccccc1-c1nc2ccn(Cc3ccc(-c4ccc(C(F)(F)F)cc4C(F)(F)F)nn3)cc-2n1	1a	replicon	0.0036 µM
C=CCCCS(=O)(=O)NC(=O)[C@H](CCC)NC(=O)[C@@H](NC(=O)[C@@H](NC(=O)OC(C)(C)C)C(C)(C)C)c1ccc(Oc2cc(-c3ccccc3)nc3cc(OC)ccc23)c(C=C)c1	1b replicon	luciferase / replicon	>10 µM
C=CC1CC1(NC(=O)[C@@H]1C[C@@H](Oc2cc(-c3ccccc3)nc3cc(OC)ccc23)CN1C(=O)[C@@H](CC(=O)N1CCC(O)C1)C(C)(C)C)C(=O)O		replicon	>10 µM
CC1(C)CC(=O)C2=C(C1)Nc1c(O)cccc1N(C(=O)c1csc(-c3cccnc3)n1)C2c1ccc(OCc2ccccc2)cc1F	1b	luciferase / reporter gene / replicon	0.81 µM
COC(=O)N[C@@H](C(=O)N1CCC[C@@H]1c1ncc(-c2ccc(-c3ncc(-c4cnc([C@H]5CCCN5C(=O)Cc5cccnc5)[nH]4)cn3)cc2)[nH]1)c1ccccc1	1b		0.00001–0.000999 µM
CCOP(=O)(CCNc1nc(NCC(F)(F)F)c2nc(-c3ccc(F)cc3)ccc2n1)OCC		replicon	<0.1 µM
CNS(=O)(=O)NC(=O)c1ccc2c(C3CCCCC3)c3n(c2c1)CC1(C(=O)N2[C@@H]4C[C@H]2CN(C)C4)CC1c1cc(OC)ccc1-3	1b	replicon	0.001–0.5 µM
CC(=O)N1c2cccc(O)c2NC2=C(C(=O)CC(C)(C)C2)C1c1ccc(C(F)(F)F)cc1C(F)(F)F	1b	luciferase / reporter gene / replicon	7.36 µM
Fc1ccc(-c2ccc3nc(NCCN4CCOCC4)nc(NCC(F)(F)F)c3n2)cc1		replicon	<0.1 µM
C[C@H](NC(=O)[C@@H](c1ccccc1)N(C)C)c1ncc(-c2ccc(-c3ccc(-c4cnc([C@H]5CCCN5C(=O)[C@@H](c5ccccc5)N(C)C)[nH]4)cn3)cc2)[nH]1	1b		0.00001–0.000999 µM
COc1ccc2c(c1)[C@@H]1C[C@]1(C(=O)N1[C@@H]3C[C@H]1CN(C(=O)N(C)C)C3)Cn1c-2c(C2CCCCC2)c2ccc(C(=O)NS(=O)(=O)N(C)C)cc21	1b	replicon	0.001–0.5 µM
COC(=O)N[C@H](C(=O)N1C(c2ncc(-c3ccc(-c4ccc(C5=NC(C6C[C@@H]7C[C@@H]7N6C(=O)[C@@H](NC(=O)OC)C(C)C)=NC5)cc4)cc3)[nH]2)C[C@@H]2CC21)C(C)C	1b		0.001–0.099 µM
COC(=O)NC[C@H](C(=O)N1CCCC1c1ncc(-c2ccc(-c3ccc(-c4cnc(C5CCCN5C(=O)[C@@H](NC(=O)OC)C(C)C)[nH]4)cc3)cc2)[nH]1)C(C)C	HCV4a-20	replicon	0.00001 µM
C[C@@H]1O[C@H](n2cnc3c(N)ncnc32)CC1(CO)CO	NK-R2AN	replicon	19 µM
COCC(C)N(C(=O)C1CCC(C)CC1)c1cc(-c2ccc(NC(=O)c3cn(C)cn3)cc2)sc1C(=O)O	1a	replicon	<0.5 µM
C=CC1C[C@]1(NC(=O)[C@@H]1C[C@@H](Oc2cc(-c3ccccc3)nc3cc(OC)ccc23)CN1C(=O)[C@H](c1ccccc1)N1CCCCC1)C(=O)NS(=O)(=O)C1CC1	1b	replicon	<100 µM
CC(=O)N1c2cccc(O)c2NC2=C(C(=O)CC(C)(C)C2)C1c1ccc(OCc2ccccc2Br)cc1Cl	1b	luciferase / reporter gene / replicon	1.49 µM

The first 7 rows once more:

| compound | strain | method | value |
|---|---|---|---|
| C[C@@H](NC(=O)Cc1ccccc1)C(=O)Nc1ccc(C2SC(=Nc3cccc(F)c3)N(Cc3ccco3)C2=O)cc1 |  |  | 0.008 µM |
| Cc1cc(C(=O)Nc2ccc(-c3cc(N(C(=O)C4CCC(C)CC4)C(C)C)c(C(=O)O)s3)cc2)ccn1 | 1b | replicon | <0.5 µM |
| C=C[C@@H]1C[C@]1(NC(=O)[C@@H]1C[C@@H](Oc2cc(-c3ccccc3)nc3cc(OC)ccc23)CN1C(=O)[C@@H](CC(=O)N1CCCCC1)C(C)(C)C)C(=O)NS(=O)(=O)C1CC1 |  | replicon | <100 µM |
| CCCC(NC(=O)C1C2CCCC2CN1C(=O)C(C)N1CCN(C(=O)OC(C)(C)C)CC1)C(=O)C(=O)NC1CC1 | 1b | replicon | <100 µM |
| NS(=O)(=O)c1ccc(CNc2nc(NCC(F)(F)F)c3nc(-c4ccc(F)nc4)ccc3n2)cc1 |  | replicon | <0.1 µM |
| CCc1nc([N+](=O)[O-])c(Sc2ccccc2)n1Cc1ccccc1 |  | replicon | 3 µg/mL |
| CCc1ccc(S(=O)(=O)N2CCN(c3cc(OC)nc(OC)n3)CC2C(=O)NCc2ccc(OC)cc2)cc1 | Mutant NS5B Y452H | replicon | 19 µM |